One data set has as its system HIV-1RF. The data set can be described thus: Acute Infection Assay, HIV core antigen ELISA in C8166 cells. In kind it is cell-based, human immunodeficiency virus. The conditions noted are these: Against HIV-1RF; for IC50: read-out: IC50 (Antiviral). Background: ELISA stands for enzyme-linked immunosorbent assay.
The subject of the next data set is uninfected cells. The data set can be described thus: Toxicity Assay, 14C protein hydrolysate uptake, 72 hours. The conditions noted are these: read-out: CC50 (Toxicity), section Against HIV-1RF, single assays, unit inferred.

Values joined by “and” are separate entries in the source; they are usually repeats but may differ in a detail not shown here. Equal entries are not always repeated. Where two headings read alike, the source gives them in different places.

One may read the CC50 as the concentration giving 50% cytotoxicity. One may read the IC50 as the concentration needed to halve the response being measured.

As for `O=[N+]([O-])c1ccc(S(=O)(=O)O)c([N+](=O)[O-])c1` [Compound S8, 2,4-dinitrobenzenesulfonic acid], the SI (Selectivity Index) in the data set on HIV-1RF (Table 11.4, Average) was 2.4; in the data set with HIV-1RF (Table 11.4, single assays) it was 2.5 and 2.

For the compound picrylsulfonic acid (sodium salt), the CC50 in the data set with uninfected cells (Table 11.2) is more than 200 µM. Further, the IC50 in the data set on HIV-1RF (Table 11.2, single assays, no unit printed (tested 200µM to 0.2µM)) is more than 200 µM.

4-nitrotoilnenesulfonic acid: the CC50 with uninfected cells (Table 11.4) is more than 200 µM. For the same compound, the IC50 in the data set with HIV-1RF (Table 11.4, single assays, unit inferred) is more than 200 µM.

The values above are taken from patent EP1016405A2, “Arylating medicaments” (Radopath Pharmaceuticals International Limited, priority 1993, dated 1994).
